The results in this text go back to article PMC7587441, “Plasmodium falciparum Apicomplexan-Specific Glucosamine-6-Phosphate N-Acetyltransferase Is Key for Amino Sugar Metabolism and Asexual Blood Stage Development” (mBio, 2020).

This series has as its system CC(=O)SCCNC(=O)CCNC(=O)[C@H](O)C(C)(C)COP(=O)(O)OP(=O)(O)OC[C@H]1O[C@@H](n2cnc3c(N)ncnc32)[C@H](O)[C@@H]1OP(=O)(O)O. Description: purified protein. The note with it: 2000 μM GlcN6P fixed, 25 mM Tris-HCl, 150 mM NaCl, pH 7.2, room temperature.
In the case of “CpGNA1 (Cryptosporidium parvum Iowa II; H81A)”, the Km is 88.9 ± 10.98 µM.
On to “CpGNA1 (Cryptosporidium parvum Iowa II; I122G)”, for which the Michaelis constant (Km) worked out at 309.2 ± 54.94 µM.
Then “CpGNA1 (Cryptosporidium parvum Iowa II; N90A)”, with 252.4 ± 44.43 µM.
The same measure for “CpGNA1 (Cryptosporidium parvum Iowa II; T117A)”: 33.41 ± 11.82 µM; for “CpGNA1 (Cryptosporidium parvum Iowa II; E119A)”: 170.4 ± 25.06 µM.

One may read the Km as the substrate concentration at which the rate is half of its maximum.
